Measured values from several laboratories, pooled; numbers as filed in NIAID ChemDB.

Shared fields: whole-cell or culture tests; species: Candida albicans

Blank or dashed fields: not listed here. Rows are shuffled and stem from different studies. A number after MIC or MFC names an inhibition level or a share of isolates.

structure	method	strain or isolate	measure	result
C[C@@H](c1nc(-c2ccc(C#N)cc2)cs1)[C@](O)(Cn1cnnc1)c1ccc(F)cc1F	-	Isogenic isolate 16 CDR	MIC	0.25 µg/mL
CN1CCC2=C(CCCC2CCc2ccc(Cl)cc2Cl)C1	-	2381E	MIC	31 µg/mL
C[C@H](Cc1ccc(O)c(O)c1)[C@@H](C)Cc1ccc(O)c(O)c1	broth dilution	CCC 128-2000	MIC100	250 µg/mL
Cc1c(N2CC[C@@H]([C@H](N)CO)C2)c(F)cn2c(=O)c(C(=O)O)cc(C3CC3)c12	-	CCH442	MIC	>100 µg/mL
CCc1cc(C(=O)O)c(=O)n2cc(F)c(N3CCC(N)C3)c(C)c12.Cl	-	CCH442	MIC	>100 µg/mL
CN1CC[C@H]2[C@@H](CC[C@@H]3c4cc(Br)ccc4CC[C@H]23)C1	-	C316	MIC	>125 µg/mL
Cc1c(N2CC(N)C2)c(F)cn2c(=O)c(C(=O)O)cc(C3CC3)c12.Cl	-	CCH442	MIC	>100 µg/mL
CN1CCC2=C(CCCC2CCc2ccc(Cl)cc2)C1	-	C316	MIC	8 µg/mL
Cc1c(N2CCC(C)(N)CC2)c(F)cn2c(=O)c(C(=O)O)cc(C3CC3)c12.Cl	-	CCH442	MIC	>100 µg/mL
CN1CCN(c2c(F)cn3c(=O)c(C(=O)O)cc(-c4ccccc4)c3c2F)CC1.Cl	-	CCH442	MIC	>100 µg/mL
CN1CCN(c2c(F)cn3c(=O)c(C(=O)O)cc(-c4ccccc4)c3c2F)CC1.Cl	-	CCH442	MIC	>100 µg/mL
CN1CCC2=C(CCCC2CCc2ccc(Br)cc2)C1	-	C316	MIC	8 µg/mL
Cc1c(N2CCNC(C)C2)c(F)cn2c(=O)c(C(=O)O)cc(C3CC3)c12.Cl	-	CCH442	MIC	>100 µg/mL
COC1CN(c2c(F)cn3c(=O)c(C(=O)O)cc(C4CC4)c3c2C)CC1N.Cl	-	CCH442	MIC	>100 µg/mL
OC(Cn1cncn1)(Cn1cncn1)c1ccc(F)cc1F	broth dilution	YL 313	MIC	256 µg/mL

A second listing of 2 rows from above:

structure,method,strain or isolate,measure,result
C[C@H](Cc1ccc(O)c(O)c1)[C@@H](C)Cc1ccc(O)c(O)c1,broth dilution,CCC 128-2000,MIC100,250 µg/mL
Cc1c(N2CCC(C)(N)CC2)c(F)cn2c(=O)c(C(=O)O)cc(C3CC3)c12.Cl,-,CCH442,MIC,>100 µg/mL